Data as given in PubChem BioAssay AID624099 (ICCB-Longwood, 2012).
Aim: 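Knock-downs relieving repression by E2 of an HPV18 LCR luciferase reporter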 (primary screen). System: human C33A cervical carcinoma cells (HPV-negative) stably expressing BPV1 E2 and an HPV18 LCR luciferase reporter. Reagents: siRNA pool against human genes, 40 nM. Timing: 72 h. Detection: 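Per-well luciferase luminescence, z-scored on each plate against the plate mean and SD with control wells left out, then averaged across three replicate plates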. Scale: mean z-score and z-score: higher = stronger reporter signal, weaker E2 silencing. Rule for the call: 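Hit if mean z-score reaches 2 and two or more of three replicate z-scores also reach 2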.
Here is a random part of about 21,000 reagents. In the full data, 497 (2.4%) were called active. 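Higher z means weaker E2 silencing; only reporter increases were scored, and knock-downs that hurt cell survival may mask genuine repressor factors.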 The numbers tell different reagents against one gene apart.

gene symbol | reagent | mean z-score | z-score, replicate A | z-score, replicate B | z-score, replicate C | call
GEN1 | 1 | 1.13 | 1.21 | 1.16 | 1.02 | inactive
TP53AIP1 | 1 | -0.04 | -0.25 | 0.12 | 0 | inactive
ERG28 | 1 | 2.79 | 2.79 | 2.8 | 2.78 | active
LERFS | 1 | -0.05 | -0.36 | 0.16 | 0.05 | inactive
ARHGAP11A | 1 | 1.84 | 1.88 | 1.81 | 1.82 | inactive
TMEM217 | 1 | 0.06 | 0.47 | 0 | -0.29 | inactive
STXBP3 | 1 | -0.66 | -0.47 | -0.79 | -0.72 | inactive
GALNT14 | 1 | 0.28 | 0.13 | 0.3 | 0.41 | inactive
ATG9A | 1 | -1.14 | -1.3 | -0.63 | -1.5 | inactive
CTNND2 | 1 | 0.23 | 0.36 | -0.05 | 0.39 | inactive
DDX11 | 1 | -0.31 | -0.04 | -0.55 | -0.34 | inactive
ASTN2 | 1 | 0.48 | 0.36 | 0.69 | 0.4 | inactive
WNT10A | 1 | -0.61 | -0.75 | -0.59 | -0.5 | inactive
CNN1 | 1 | 0.09 | 0.41 | -0.45 | 0.33 | inactive
ADK | 1 | 0.76 | 0.52 | 0.59 | 1.16 | inactive
LINC01854 | 1 | -0.19 | -0.09 | -0.45 | -0.03 | inactive
RASAL2 | 1 | 0.24 | 0.1 | 0.47 | 0.16 | inactive
MAGEE1 | 1 | -0.68 | -0.52 | -0.66 | -0.85 | inactive
CERKL | 1 | -1.18 | -0.85 | -1.46 | -1.24 | inactive
LRRC27 | 1 | -0.08 | -0.21 | 0.04 | -0.08 | inactive
NXF3 | 1 | -1.68 | -1.93 | -1.7 | -1.41 | inactive
TRIM46 | 1 | -0.31 | -0.37 | -0.56 | 0.01 | inactive
OR5AC2 | 1 | 0.29 | 0.45 | -0.05 | 0.46 | inactive
LRRC4 | 1 | -0.75 | -0.94 | -0.76 | -0.54 | inactive
ZP4 | 1 | -0.38 | -0.3 | -0.36 | -0.48 | inactive
SSUH2 | 1 | -0.22 | -0.38 | -0.09 | -0.19 | inactive
NFXL1 | 1 | -0.67 | -0.65 | -0.8 | -0.55 | inactive
ART1 | 1 | 0.56 | 0.27 | 0.43 | 0.99 | inactive
SDHAF4 | 1 | 2.67 | 2.75 | 2.45 | 2.81 | active
FGD1 | 1 | 0.08 | -0.27 | 0.42 | 0.1 | inactive
ANKS3 | 1 | -1.08 | -1.24 | -1.21 | -0.79 | inactive
DCTN1 | 1 | -0.97 | -1.19 | -0.89 | -0.84 | inactive
MLH1 | 1 | 1.44 | 1.34 | 1.35 | 1.64 | inactive
ALG2 | 1 | -0.31 | -0.37 | -0.24 | -0.33 | inactive
FSD1L | 1 | 0.85 | 0.93 | 0.74 | 0.87 | inactive
FSD1L | 2 | -0.11 | -0.52 | 0.14 | 0.04 | inactive
KCNQ3 | 1 | -0.2 | -0.2 | 0.02 | -0.4 | inactive
ACIN1 | 1 | -1.48 | -0.96 | -1.65 | -1.81 | inactive
LAT2 | 1 | -1.34 | -1.33 | -1.13 | -1.55 | inactive
PDK3 | 1 | 0.68 | 0.64 | 0.71 | 0.7 | inactive
CLEC10A | 1 | -0.7 | -0.36 | -0.78 | -0.95 | inactive
CAPN11 | 1 | 0.82 | 0.73 | 0.94 | 0.8 | inactive
LOC402280 (retired record) | 1 | -0.28 | -0.3 | -0.19 | -0.35 | inactive
TAB2 | 1 | -0.54 | -0.84 | -0.67 | -0.11 | inactive
SLC38A10 | 1 | 0.23 | 0.41 | 0.21 | 0.09 | inactive
DIRC1 | 1 | 0.28 | 0.35 | 0.41 | 0.07 | inactive
MAX | 1 | -0.83 | -0.54 | -0.94 | -1.02 | inactive
ZFP37 | 1 | 0.63 | 0.47 | 0.87 | 0.56 | inactive
HFM1 | 1 | 0.14 | -0.02 | 0.19 | 0.26 | inactive
HFM1 | 2 | -0.23 | -0.39 | -0.23 | -0.06 | inactive
INSL4 | 1 | 0.89 | 0.81 | 0.81 | 1.03 | inactive
DCAF15 | 1 | 0.37 | 0.62 | 0.39 | 0.1 | inactive
HSPA4 | 1 | -0.86 | -0.63 | -1.22 | -0.73 | inactive
CCDC32 | 1 | 0.26 | 0.2 | -0.15 | 0.72 | inactive
CCDC34 | 1 | 0.82 | 0.83 | 0.62 | 1.02 | inactive
KRT26 | 1 | -0.32 | 0.06 | -0.68 | -0.34 | inactive
GAST | 1 | 0.57 | 0.52 | 0.64 | 0.54 | inactive
